Replication capacity of HIV-1 mutants, integrase

Protein: integrase of HIV-1 NL4-3, numbered from its first residue. The source prints no sequence; the chain below is taken from UniProt P12497, a closely related isolate, and fits the source at the 252 positions it covers.
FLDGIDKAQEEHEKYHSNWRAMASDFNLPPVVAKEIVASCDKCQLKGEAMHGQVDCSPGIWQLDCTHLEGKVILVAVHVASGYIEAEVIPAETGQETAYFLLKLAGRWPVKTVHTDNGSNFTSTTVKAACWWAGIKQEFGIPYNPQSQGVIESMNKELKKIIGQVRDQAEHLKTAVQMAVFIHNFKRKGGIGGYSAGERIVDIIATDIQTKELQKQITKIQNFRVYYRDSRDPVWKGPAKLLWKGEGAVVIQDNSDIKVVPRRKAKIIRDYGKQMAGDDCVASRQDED
"Other frame" gives the effect on an overlapping gene as the source lists it; other overlaps (genes, RNA elements) are not shown.

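Random point mutant libraries of HIV-1 NL4-3, one for each of seven fragments, were passaged in CEM T lymphocytes. Sequencing gave the RC index: frequency after two rounds over frequency in the input plasmid.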

A higher RC index is a better tolerated change; approximate classes are lethal up to 0.1, attenuated to 0.2, tolerated above. A change reads original residue, position, new residue. Since each clone held several changes (about five per kb), neutral changes can read low. Base changes are numbered along pNL4-3. The authors read an index above 1 as above wild type (1.9% of all changes in the genome).

| # | change | base | other frame | RC |
|---|---|---|---|---|
| 1 | F1I | T4230A | none | 0.128 |
| 2 | D3V | A4237T | none | 0.0470 |
| 3 | I5T | T4243C | none | 0.0429 |
| 4 | D6V | A4246T | none | 0.0377 |
| 5 | Q9H | A4256C | none | 0.0663 |
| 6 | E11D | A4262T | none | 0.0579 |
| 7 | H16N | C4275A | none | 0.301 |
| 8 | H16R | A4276G | none | 0.0995 |
| 9 | S17N | G4279A | none | 0.236 |
| 10 | R20K | G4288A | none | 0.308 |
| 11 | M22T | T4294C | none | 0.0748 |
| 12 | S24R | T4301G | none | 0.0578 |
| 13 | F26L | T4307G | none | 0.0835 |
| 14 | N27Y | A4308T | none | 0.0870 |
| 15 | V31E | T4321A | none | 0.0359 |
| 16 | V32L | G4323C | none | 0.0802 |
| 17 | A33T | G4326A | none | 0.156 |
| 18 | I36L | A4335T | none | 0.0533 |
| 19 | K42T | A4354C | none | 0.0313 |
| 20 | K42I | A4354T | none | 0.0446 |
| 21 | C43S | G4357C | none | 0.122 |
| 22 | K46T | A4366C | none | 0.0753 |
| 23 | G47W | G4368T | none | 0.151 |
| 24 | C56S | G4396C | none | 0.0434 |
| 25 | S57G | A4398G | none | 0.100 |
| 26 | G59R | G4404A | none | 0.535 |
| 27 | Q62L | A4414T | none | 0.0238 |
| 28 | H67R | A4429G | none | 0.0274 |
| 29 | L74V | T4449G | none | 0.0389 |
| 30 | V77G | T4459G | none | 0.0878 |
| 31 | H78L | A4462T | none | 0.0592 |
| 32 | Y83F | A4477T | none | 0.0353 |
| 33 | A86E | C4486A | none | 0.182 |
| 34 | P90Q | C4498A | none | 0.0746 |
| 35 | G94E | G4510A | none | 0.157 |
| 36 | Q95H | A4514C | none | 0.0309 |
| 37 | E96V | A4516T | none | 0.0572 |
| 38 | A105E | C4543A | none | 0.128 |
| 39 | G106R | G4545A | none | 0.163 |
| 40 | W108L | G4552T | none | 0.169 |
| 41 | V110E | T4558A | none | 0.0229 |
| 42 | K111R | A4561G | none | 0.0353 |
| 43 | T115A | A4572G | none | 0.103 |
| 44 | N117Y | A4578T | none | 0.0724 |
| 45 | G118S | G4581A | none | 0.229 |
| 46 | S119N | G4585A | none | 0.158 |
| 47 | F121L | C4592A | none | 0.258 |
| 48 | T124N | C4600A | none | 0.133 |
| 49 | T125K | C4603A | none | 0.126 |
| 50 | V126A | T4606C | none | 0.0671 |
| 51 | A129P | G4614C | none | 0.101 |
| 52 | C130G | T4617G | none | 0.161 |
| 53 | G134E | G4630A | none | 0.353 |
| 54 | G134V | G4630T | none | 0.123 |
| 55 | N144K | T4661A | none | 0.0353 |
| 56 | V150I | G4677A | none | 0.477 |
| 57 | I151L | A4680T | none | 0.0337 |
| 58 | E152D | A4685T | none | 0.0374 |
| 59 | S153F | C4687T | none | 0.550 |
| 60 | M154I | G4691T | none | 1.20 |
| 61 | K156T | A4696C | none | 0.115 |
| 62 | K159R | A4705G | none | 0.0384 |
| 63 | V165L | G4722C | none | 0.0462 |
| 64 | D167H | G4728C | none | 0.0893 |
| 65 | H171L | A4741T | none | 0.0354 |
| 66 | V176L | G4755C | none | 0.0481 |
| 67 | Q177L | A4759T | none | 0.0272 |
| 68 | Q177H | A4760T | none | 0.0285 |
| 69 | M178L | A4761T | none | 0.0322 |
| 70 | I182T | T4774C | none | 0.0742 |
| 71 | N184D | A4779G | none | 0.0523 |
| 72 | N184I | A4780T | none | 0.0536 |
| 73 | F185S | T4783C | none | 0.0691 |
| 74 | F185L | T4784A | none | 0.0466 |
| 75 | K186T | A4786C | none | 0.0246 |
| 76 | R187I | G4789T | none | 0.0899 |
| 77 | G189W | G4794T | none | 0.209 |
| 78 | G193R | G4806A | none | 0.243 |
| 79 | G197R | G4818C | none | 0.0492 |
| 80 | E198V | A4822T | none | 0.0468 |
| 81 | R199S | A4826T | none | 0.0240 |
| 82 | V201A | T4831C | none | 0.0613 |
| 83 | I204M | A4841G | none | 0.0614 |
| 84 | T210S | A4857T | none | 0.0326 |
| 85 | N222K | T4895A | none | 0.102 |
| 86 | F223Y | T4897A | none | 0.0270 |
| 87 | R224L | G4900T | none | 0.153 |
| 88 | R228K | G4912A | none | 0.689 |
| 89 | S230C | A4917T | none | 0.0286 |
| 90 | D232E | T4925A | none | 0.0218 |
| 91 | P233S | C4926T | none | 0.105 |
| 92 | K236E | A4935G | none | 0.0911 |
| 93 | K236N | A4937T | none | 0.0625 |
| 94 | P238T | C4941A | none | 0.165 |
| 95 | P238A | C4941G | none | 0.0591 |
| 96 | A239E | C4945A | none | 0.150 |
| 97 | W243R | T4956C | none | 0.134 |
| 98 | V250A | T4978C | none | 0.151 |
| 99 | I251T | T4981C | none | 0.0792 |
| 100 | D253G | A4987G | none | 0.0157 |
| 101 | D253E | T4988A | none | 0.0387 |
| 102 | N254D | A4989G | none | 0.102 |
| 103 | I257K | T4999A | none | 0.118 |
| 104 | K258E | A5001G | none | 0.0221 |
| 105 | V259L | G5004C | none | 0.160 |
| 106 | R262G | A5013G | none | 0.0536 |
| 107 | A265V | C5023T | none | 0.203 |
| 108 | K266E | A5025G | none | 0.160 |
| 109 | I267F | A5028T | none | 0.0584 |
| 110 | I267T | T5029C | none | 0.113 |
| 111 | Q274P | A5050C | Vif silent | 0.0886 |
| 112 | V281M | G5070A | Vif silent | 0.133 |
| 113 | D286N | G5085A | Vif silent | 0.524 |

A selection of 8 entries from above:

For T115A (base A4572G) the result was 0.103.
For F185S (base T4783C) the result was 0.0691.
For F1I (base T4230A) the result was 0.128.
For R228K (base G4912A) the result was 0.689.
For R187I (base G4789T) the result was 0.0899.
For H67R (base A4429G) the result was 0.0274.
For A33T (base G4326A) the result was 0.156.
For I251T (base T4981C) the result was 0.0792.

From the data files of Al-Mawsawi et al. 2014, doi:10.1186/s12977-014-0124-6.